# Laboratory results: PubChem BioAssay AID504761 (Drosophila RNAi Screening Center, 2011)
# Aim: 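Insect host genes that dengue virus relies on to spread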 (primary screen)
# System: D.Mel-2 cells from Drosophila
# Knock-down reagent: long dsRNA against Drosophila genes
# Treatment: infection with dengue virus type 2; dose and infection time not stated
# Detection: 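Per well on two replicate plates, imaging gave the percent of cells positive for viral envelope protein, ranked by infection, and a nuclear count of cells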
# Scale: infection score: higher = more virus-infected cells; cell count: higher = more cells in the well
# Call rule: 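Very low infection ranking in both replicate wells (chance probability at most 0.065), then a retest showing infection dropped 1.5-fold or more at p below 0.05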
# Meaning of the calls: active = confirmed: knock-down lowers infection; inactive = not picked or not confirmed
# In all, the deposit lists about 22,000 reagents; this is a random part of those with a known target gene and a result. Of all reagents, 116 (0.52%) got an active call. 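Calls depend on retest data that are not deposited; infection was ranked per plate without normalising between plates; the unit of the infection score is not given.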 Raw values are not corrected between plates. The numbers tell different reagents against one gene apart. Names joined by + are all predicted targets of the reagent. No sequences are given here. Not given: the amount of reagent, the time to read-out.
Target gene,reagent no.,"infection score, replicate 1","infection score, replicate 2","cell count, replicate 1","cell count, replicate 2",activity call
CG33093,1,3.31,6.36,7089,6913,inactive
Urm1,1,1.36,7.44,6473,6813,inactive
Urm1,2,19.8,17.9,4752,3917,inactive
mRpS26,1,8.82,4.84,5474,5125,inactive
mRpS26,2,30.5,12.2,5814,5818,inactive
Prp8,1,50.8,61.8,1735,2449,inactive
CG15251 (retired record),1,4.79,8.24,6414,6640,inactive
CG4610,1,8.27,8.31,5924,6053,inactive
CG4610,2,1.95,8.83,5911,6707,inactive
CG4610,3,19.8,3.69,3468,623,inactive
CG18081,1,0.44,1.4,5895,6155,inactive
CG18081,2,2.77,2.07,6425,6028,inactive
Arp8,1,4.95,3.88,6340,6521,inactive
Arp8,2,4.13,1.13,5863,6290,inactive
CG5597,1,18.4,20.9,4824,6109,inactive
sut1,1,11.8,8.38,5452,6290,inactive
Trmt112,1,5.58,3.77,6609,6571,inactive
CG42747,1,0.71,4.84,6087,5562,inactive
CG42747,2,1.26,6.41,6261,5803,inactive
CG42747,3,2.18,1.5,6045,6404,inactive
18w,1,,,325,375,inactive
18w,2,16.1,5.9,6255,6289,inactive
Gp93,1,19.9,10.7,5538,5919,inactive
Gp93,2,16.4,15,6226,5872,inactive
CG30031 + deltaTry + gammaTry,1,18.8,17.3,5821,6193,inactive
Fpgs1,1,17.6,21.9,5349,6241,inactive
Fpgs1,2,5.7,2.84,6089,5624,inactive
CG6961 + CG18259,1,2.65,1.23,5093,5757,inactive
CG6961 + CG18259,2,1.09,2.16,6873,6380,inactive
CG6961 + CG18259,3,10,6.11,6692,6322,inactive
CG17991,1,11,1.15,4779,7014,inactive
CG3339,1,1.57,0.73,6256,5205,inactive
CG3339,2,7.41,2.86,5010,7055,inactive
Zip71B,1,1.24,2.8,6051,6350,inactive
Zip71B,2,,0.5,321,403,inactive
Eig71Ec,1,2.46,5.72,6212,6345,inactive
Cyt-c1,1,8.96,13.9,3070,4410,inactive
Cyt-c1,2,9.04,,1360,278,inactive
CR30409,1,5.75,4.28,6709,6807,inactive
Prosbeta3,1,0.48,0.62,419,487,inactive
rdo,1,20.2,13.6,6293,6421,inactive
rdo,2,3.02,0.74,6301,6476,inactive
CG13700,1,2.29,5.72,6711,7010,inactive
CG13700,2,34.5,22.2,3463,6242,inactive
CG31041,1,0.14,0.03,6526,6686,inactive
Myb,1,3.87,3.24,1525,1761,inactive
Acsx1R,1,3.65,13,767,4946,inactive
MsR1,1,2.33,1.21,6233,6421,inactive
MsR1,2,2.57,2.21,6276,6207,inactive
p120ctn,1,3.69,3.43,6554,6069,inactive
CG7536,1,1.38,1.81,6813,6460,inactive
l(1)G0196,1,2.7,2.05,6258,6328,inactive
l(1)G0196,2,6.6,6.99,6728,6525,inactive
l(1)G0196,3,3.48,0.83,6124,5677,inactive
mRpS28,1,4.53,1.51,5669,5756,inactive
ord,1,5.49,16.5,1422,5057,inactive
Yip1d1,1,23,6.13,5789,5937,inactive
Dok,1,1.3,6.52,6292,6563,inactive
Dok,2,7.62,1.7,6350,6194,inactive

A run of entries from the list above, as a working copy:
Target gene,reagent no.,"infection score, replicate 1","infection score, replicate 2","cell count, replicate 1","cell count, replicate 2",activity call
CG7536,1,1.38,1.81,6813,6460,inactive
l(1)G0196,1,2.7,2.05,6258,6328,inactive
l(1)G0196,2,6.6,6.99,6728,6525,inactive
l(1)G0196,3,3.48,0.83,6124,5677,inactive
mRpS28,1,4.53,1.51,5669,5756,inactive
